Measurements reported in paper PMC11326647, “In vitro reconstitution reveals membrane clustering and RNA recruitment by the enteroviral AAA+ ATPase 2C” (PLOS Pathogens, 2023).

Biological target: T1, 2C (MBP removed by TEV in situ, bound to SUVs) (Poliovirus type 1 Mahoney) (UniProt P03300)
T1 sequence (looked up): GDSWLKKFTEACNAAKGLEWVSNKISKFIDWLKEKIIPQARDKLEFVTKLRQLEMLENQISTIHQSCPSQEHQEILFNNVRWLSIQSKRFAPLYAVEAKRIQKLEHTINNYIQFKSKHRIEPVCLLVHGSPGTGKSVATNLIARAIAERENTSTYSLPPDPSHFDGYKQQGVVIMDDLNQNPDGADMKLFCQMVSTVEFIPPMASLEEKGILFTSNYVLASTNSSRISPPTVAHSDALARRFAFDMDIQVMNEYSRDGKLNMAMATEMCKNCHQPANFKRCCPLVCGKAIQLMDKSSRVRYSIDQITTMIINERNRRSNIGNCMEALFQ
Test: binding assay
Settings: 5 uM ssRNA, stronger effect than ssDNA; recombinant protein; residues 1128-1456; protein details: His6-MBP cleaved by TEV during assay

Sequence: UGAAUGCGGCUAAUCCCAACCU [ssRNA 22-mer (oligo 7)]
- binding result: binds

The exact form of at least one protein or probe is not confirmed. At least one verdict was read from the data and is not stated in words by the source. Where a protein sequence is shown, tags need not be part of it.
